In patent publication US9949945B2, “3′ equatorial-fluorine-substituted neuraminidase inhibitor compounds, compositions and methods for the use thereof as anti-virals” (THE UNIVERSITY OF BRITISH COLUMBIA, priority 2012, dated 2018):

Key:
Assay type in all cases: biochemical
[1] = target: A/Fukui H3N2 E119V (oseltamivir-resistant) NA (Influenza A virus, UniProt A0A0F6NYK2, E119V); settings: read-out: IC50 in the enzyme inhibition assay, A/Fukui H3N2 E119V
[2] = target: B/Florida E119D (B/Florida/4/2006 mutant 1 E117D) NA (Influenza B virus, UniProt J7JZT1, E117D)
[3] = target: Auckland pH1N1 E119K (A/Auckland/3/2009 mutant 1) NA (Influenza A virus, UniProt C3W5S3, E119K); settings: pH 1

In the case of Zanamivir, the IC50 [1] is reported as 0.0034 µM, the IC50 [2] is reported as greater than 10 µM and the IC50 [3] is reported as greater than 100 µM.
